Chains of the proteins cited; added tags and fusions are not shown. Residues count along the entry.
UniProt A0A3Q0KMM5, 27-661 limits assumed: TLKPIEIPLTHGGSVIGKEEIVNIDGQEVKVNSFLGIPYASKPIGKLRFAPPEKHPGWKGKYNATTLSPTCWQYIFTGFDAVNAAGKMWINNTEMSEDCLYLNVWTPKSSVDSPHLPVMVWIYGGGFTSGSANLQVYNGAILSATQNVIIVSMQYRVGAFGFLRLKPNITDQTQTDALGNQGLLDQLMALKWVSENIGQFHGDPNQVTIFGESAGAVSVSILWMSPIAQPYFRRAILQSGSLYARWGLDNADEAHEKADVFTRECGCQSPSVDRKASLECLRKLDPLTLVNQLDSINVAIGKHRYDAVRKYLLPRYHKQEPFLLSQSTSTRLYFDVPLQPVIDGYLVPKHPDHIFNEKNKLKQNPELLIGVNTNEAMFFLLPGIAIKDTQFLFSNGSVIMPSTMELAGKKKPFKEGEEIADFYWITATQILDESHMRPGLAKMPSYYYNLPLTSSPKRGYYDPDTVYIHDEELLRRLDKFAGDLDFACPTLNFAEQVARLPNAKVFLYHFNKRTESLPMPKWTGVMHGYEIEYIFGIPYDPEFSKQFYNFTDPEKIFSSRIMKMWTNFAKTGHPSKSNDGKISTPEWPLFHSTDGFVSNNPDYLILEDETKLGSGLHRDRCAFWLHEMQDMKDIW

According to article PMC12154458, “High-Throughput Screens of Repurposing Hub and DOS Chemical Libraries Reveal Compounds with Novel and Potent Inhibitory Activity Against the Essential Non-Neuronal Acetylcholinesterase of Schistosoma mansoni (SmTAChE)” (International Journal of Molecular Sciences, 2025):

Legend:
rSmTAChE [1] = molecular target: T1, rSmTAChE (Schistosoma mansoni, UniProt A0A3Q0KMM5); settings: dose response analysis of Drug Repurposing Hub hits against rSmTAChE; for IC50: read-out: qAC50 (IC50), rSmTAChE;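 as to Inhibition (%) (Average): mostly 20 µM final but a few compounds at 5 or 10 µM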;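 as to Inhibition (%) Replicate A: mostly 20 µM final but a few compounds at 5 or 10 µM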;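 as to Inhibition (%) Replicate B: mostly 20 µM final but a few compounds at 5 or 10 µM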
rSmTAChE [2] = molecular target: T1, rSmTAChE; settings: Table S1, Repurposing Hub

Row | SMILES | Data Mode (curve class), rSmTAChE (rSmTAChE [1]) | IC50 (rSmTAChE [1]) [µM] | Inhibition (%) (Average) (rSmTAChE [2]; Concentration Av 10 µM) | Inhibition (%) Replicate A (rSmTAChE [2]; Concentration Av 10 µM) [%] | Inhibition (%) Replicate B (rSmTAChE [2]; Concentration Av 10 µM) [%] | Inhibition (%) (Average) (rSmTAChE [2]; Concentration Av 5 µM) | Inhibition (%) Replicate A (rSmTAChE [2]; Concentration Av 5 µM) [%] | Inhibition (%) Replicate B (rSmTAChE [2]; Concentration Av 5 µM) [%]
1 | COc1cccc(-n2nc(C(=O)O)cc2-c2ccc(C3CCCCC3)c(Cl)c2)c1 | decreasing (weakly active) | > 6.8 | 73.41 | 73.41 | 73.41 | – | – | –
2 | Cc1c(OCc2cccc(-c3ccc(C(=O)O)cc3)c2)cc2c(c1C)C(=O)C(C1CCCC1)C2 (centres unmarked) | decreasing | – | – | – | – | 73.56 | 73.27 | 73.84
3 | CCCn1c(=O)[nH]c2nc(-c3ccc(S(=O)(=O)N4CCN(c5ccc(Cl)cc5)CC4)cc3)[nH]c2c1=O | decreasing (weakly active) | > 6.8 | 63.69 | 63.02 | 64.35 | – | – | –

Where two headings read alike, the source gives them in different places.
